Anti-infective test results gathered from many reports (values: NIAID ChemDB through PubChem).

All rows: whole-cell or culture tests; organism: Measles virus; cells: VERO; measure: EC50

Blank or dashed fields: not listed here. Neighbouring rows are from separate reports. ECn is the concentration giving n% inhibition of infection, replication or growth.

compound	strain	method	value
CC[C@H](/C=C/[C@@H](C)[C@H]1CC[C@H]2[C@@H]3CC(=O)[C@@]4(F)CC=CC[C@]4(C)[C@H]3CC[C@]12C)C(C)C	MV/Brazil/001/91	plaque count	701 µM
Nc1nccc2c1ncn2[C@@H]1C[C@H](CO)[C@@H](O)[C@H]1O	-	cytopathic effect	2 µg/mL
Nc1ncnc2c1ncn2C[C@H](O)CO	-	cytopathic effect	40 µg/mL
CC[C@@H](C(C)C)[C@@H](O)[C@H](O)[C@@H](C)[C@H]1CC[C@H]2[C@@H]3CC(=O)[C@@]4(F)C[C@@H](O)CC[C@]4(C)[C@H]3CC[C@]12C	MV/Brazil/001/91	plaque count	75 µM
C#Cc1c(C(N)=O)ncn1[C@@H]1O[C@H](CO)[C@@H](O)[C@H]1O	Sugiyama	cytopathic effect	0.5 µg/mL
CC[C@@H](C(C)C)[C@@H](O)[C@H](O)[C@@H](C)[C@H]1CC[C@H]2[C@@H]3CC(=O)[C@@]4(O)C[C@@H](F)CC[C@]4(C)[C@H]3CC[C@]12C	MV/Brazil/001/91	plaque count	16 µM
Nc1nccc2c1ncn2[C@@H]1C[C@H](CO)[C@@H](O)[C@H]1O	Niigata-1	plaque count	2.2 µg/mL
Nc1ncnc2c1c(Br)cn2[C@@H]1O[C@H](CO)[C@@H](O)[C@H]1O	-	cytopathic effect	0.2 µg/mL
NC(=O)c1ncn([C@@H]2O[C@H](CO)[C@@H](O)[C@H]2O)c1O	Sugiyama	plaque count	1.9 µg/mL
O=c1cnn([C@@H]2O[C@H](CO)[C@@H](O)[C@H]2O)c(=O)[nH]1	Sugiyama	plaque count	0.66 µg/mL
CC[C@@H](C(C)C)[C@H](O)[C@@H](O)[C@@H](C)[C@H]1CC[C@H]2[C@@H]3CC(=O)[C@@]4(O)C[C@H](O)[C@H](O)C[C@]4(C)[C@H]3CC[C@]12C	MV/Brazil/001/91	plaque count	58 µM
C/C=C/Cc1cn([C@@H]2O[C@H](CO)[C@@H](O)[C@H]2O)c2ncnc(N)c12	-	cytopathic effect	>100 µg/mL
C#Cc1c(C(N)=O)ncn1[C@@H]1O[C@H](CO)[C@@H](O)[C@H]1O	Sugiyama	plaque count	0.69 µg/mL
NC(=O)c1csc([C@@H]2O[C@H](CO)[C@@H](O)[C@H]2O)n1	Edmonston	cytopathic effect	42 µg/mL
CC[C@@H](C(C)C)[C@H](O)[C@@H](O)[C@@H](C)[C@H]1CC[C@H]2[C@@H]3CC(=O)[C@@]4(F)C[C@@H](O)CC[C@]4(C)[C@H]3CC[C@]12C	MV/Brazil/001/91	plaque count	3 µM
Nc1ncnc2c1ncn2C1CC(CO)[C@@H](O)[C@H]1O	-	cytopathic effect	≥4 µg/mL
NC(=O)c1ncn([C@@H]2O[C@H](CO)[C@@H](O)[C@H]2O)n1	Edmonston	plaque count	48.2 µM
CC(O)c1cn([C@@H]2O[C@H](CO)[C@@H](O)[C@H]2O)c2ncnc(N)c12	-	cytopathic effect	>40 µg/mL
CC[C@@H](C(C)C)[C@H](O)[C@@H](O)[C@@H](C)[C@H]1CC[C@H]2[C@@H]3CC(=O)C4C[C@H](F)CC[C@]4(C)[C@H]3CC[C@]12C	MV/Brazil/001/91	plaque count	38 µM
Nc1nccc2c1ncn2[C@@H]1O[C@H](CO)[C@@H](O)[C@H]1O	-	cytopathic effect	≥40 µg/mL
CC1(C)[C@@H](O[C@H]2O[C@H](C(=O)O)[C@@H](O)[C@H](O)[C@H]2O[C@@H]2O[C@H](C(=O)O)[C@@H](O)[C@H](O)[C@H]2O)CC[C@]2(C)[C@H]3C(=O)C=C4[C@@H]5C[C@@](C)(C(=O)O)CC[C@]5(C)CC[C@@]4(C)[C@]3(C)CC[C@@H]12	Niigata-1	plaque count	760 µg/mL
CC[C@H](/C=C/[C@@H](C)[C@H]1CC[C@H]2[C@@H]3CC(=O)[C@@]4(Cl)C[C@@H](F)CC[C@]4(C)[C@H]3CC[C@]12C)C(C)C	MV/Brazil/001/91	plaque count	32 µM

Repeating the first 3 entries:

CC[C@H](/C=C/[C@@H](C)[C@H]1CC[C@H]2[C@@H]3CC(=O)[C@@]4(F)CC=CC[C@]4(C)[C@H]3CC[C@]12C)C(C)C ; strain: MV/Brazil/001/91 ; method: plaque count ; value: 701 µM
Nc1nccc2c1ncn2[C@@H]1C[C@H](CO)[C@@H](O)[C@H]1O ; method: cytopathic effect ; value: 2 µg/mL
Nc1ncnc2c1ncn2C[C@H](O)CO ; method: cytopathic effect ; value: 40 µg/mL